HIV-1 1203 Vif substitutions under APOBEC3G selection

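Pooled viruses with one designed change each in Vif went through two 72 h rounds in SupT1 cells expressing APOBEC3G. Frequencies after the second round, in three biological replicates, were compared with the merged pool after the first round. The overlap of vif with pol had been removed, so integrase is unaffected.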

Scanned stretch, residues 12 to 115 of Vif from HIV-1 1203 (a subtype B primary isolate):
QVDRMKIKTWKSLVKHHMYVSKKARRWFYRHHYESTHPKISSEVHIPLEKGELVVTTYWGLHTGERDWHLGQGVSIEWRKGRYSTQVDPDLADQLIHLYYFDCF

Values are log2 enrichment relative to wild type (0); lower means weaker defence against APOBEC3G and poorer growth. A change reads original residue, position, new residue. The median of three replicates is given. Input reads are the counts in the merged round-one pool, before selection. Replicates agree only moderately (rank correlation about 0.4-0.65); scores from under about 50 input reads tend to be too high. The authors note that some positive scores may be noise, and some enriched variants failed when tested singly. Some changes are missing from the data or left out.

change	input reads	log2 enrichment (median)
V66W	278	-2.70
D99Y	76	-0.84
D113G	38	-0.14
G84E	17	-2.17
K50H	21	-0.88
H48Y	314	1.17
P58S	90	-2.96
K26Q	25	2.50
S95C	22	-0.11
K34L	889	-0.43
D101K	696	-0.24
S86K	52	1.47
V98A	214	-3.38
S52C	350	-2.22
H43F	39	1.05
G92W	359	-1.47
Q12F	263	-1.98
H27K	246	-1.45
R90G	340	-1.73
C114R	171	-2.09
L81P	24	0.65
T74E	285	-3.07
H42C	171	1.90
L102Q	26	0.05
H42R	30	-1.74
E54L	18	0.03
V85T	536	-1.32
D14Y	220	-0.99
K91R	16	-0.89
W38E	251	-0.87
H43Y	20	-0.47
S95A	235	-2.04
G92K	16342	-2.64
K34Q	210	-0.80
P100H	189	-1.46
L106W	21	-2.86
V65E	114	-2.45
D99K	18	0.11
K17Y	117	0.58
W89G	103	-2.30
H27L	295	-2.24
Y40N	700	-2.14
Y44K	219	-2.35
L102D	216	-3.17
I18Y	30	0.15
L59A	1932	-2.59
F39D	2325	-1.99
I57Y	28	-0.05
K91L	179	0.13
E63Q	285	-1.73
W38R	863	-1.63
E63V	187	-2.66
T67E	571	-2.46
T67D	205	-3.10
K91E	209	-2.68
Y30R	546	-1.39
T20N	1171	-2.91
Q97D	42	3.20
Y44Q	23	2.01
L109S	132	-2.65
Q105L	154	-1.77
W38C	26	0.02
Q12C	240	1.45
R77A	380	-2.57
G82C	213	-1.51
L24E	51	-0.26
V25A	18	2.28
G75Q	495	-1.76
Q97K	243	-2.80
D113I	100	-2.95
L81I	63	3.44
I57Q	125	-1.47
S23Y	2055	-0.23
V31R	42	0.01
D101Y	153	-1.57
K33E	66	-0.73
Y94S	115	-1.99

8 of these entries, quoted again:

| change | input reads | log2 enrichment (median) |
|---|---|---|
| K91E | 209 | -2.68 |
| K34L | 889 | -0.43 |
| H42C | 171 | 1.90 |
| H42R | 30 | -1.74 |
| V85T | 536 | -1.32 |
| T67E | 571 | -2.46 |
| V65E | 114 | -2.45 |
| E63Q | 285 | -1.73 |

The measurements come from Langley et al. 2025, preprint (doi:10.1101/2025.10.20.683452).